Earlier results as cited in publication PMC7854729 (Nature Communications, 2021).

Tested on: SARS-CoV PLpro
Conditions: cited from earlier work

Cc1ccc(N)cc1C(=O)N[C@H](C)c1cccc2ccccc12 [Compound 1, 5-amino-2-methyl-N-[(1R)-1-naphthalen-1-ylethyl]benzamide]
IC50: 600 nM
